Results of unrelated studies side by side (data: NIAID ChemDB).

Common to all: whole-cell or culture tests; species: Rhinovirus; read-out: EC50

Neighbouring rows are from separate reports. ECn: concentration that inhibits the pathogen or its effect by n%.

Cc1cc(C(=O)N[C@H](C(=O)C[C@@H](Cc2ccc(F)cc2)C(=O)N[C@H](/C=C2\CCOC2=O)C[C@@H]2CCNC2=O)C(C)C)no1 ; method: XTT ; cells: H1-HELA ; strain or isolate: Serotype 14 ; result: <0.03 µM
CCO/N=C/c1ccc(OCCCN2CCN(c3ccc(C)nn3)CC2)cc1 ; method: cytopathic effect / visual reading ; cells: KB ; strain or isolate: TYPE 1A ; result: 0.05 µg/mL
CCOC(=O)/C=C/[C@H](C[C@@H]1CCNC1=O)NC(=O)[C@@H](CC(=O)[C@@H](NC(=O)c1cc(C)on1)C(C)C)Cc1ccc(F)cc1 ; method: cytopathic effect / visual reading ; cells: OHIO HELA-I ; strain or isolate: Isolate 14 ; result: 0.02 µg/mL
Cc1ccc(Cn2cnc3c(Nc4cccc(F)c4)nc(C(F)(F)F)nc32)cc1 ; method: plaque count ; cells: M-HELA ; strain or isolate: Serotype 2 ; result: 2.6 µM
CSc1nsc(-c2ccc(OCCCOc3ccc(C#N)cc3)cc2)c1C#N ; method: cytopathic effect ; cells: HELA-OHIO ; strain or isolate: Serotype 2 (group B) ; result: >2 µM
CN(C)c1ccc(Cn2cnc3c(N(C)C)nc(C(F)(F)F)nc32)cc1 ; method: plaque count ; cells: M-HELA ; strain or isolate: Serotype 3 ; result: >8 µM
Cn1c2ccccc2c2n[nH]c(=S)nc21 ; method: plaque count ; cells: WI-38 ; strain or isolate: 1059 ; result: 20 µg/mL
CSc1nsc(-c2ccc(OCCOc3ccc([N+](=O)[O-])cc3)cc2)c1C#N ; method: cytopathic effect ; cells: HELA-OHIO ; strain or isolate: Serotype 63 (group B) ; result: >2 µM
CO/N=C/c1cc(C)c(OCCCc2cc(C)no2)c(C)c1 ; method: cytopathic effect / visual reading ; cells: MRC-5 ; strain or isolate: TYPE 2 ; result: <0.05 µg/mL
CCO/N=C/c1ccc(OCCC2CCN(c3ccc(Cl)nn3)CC2)cc1 ; method: neutral red ; cells: KB ; strain or isolate: A2#58 (ICAM-1 receptor group 50) ; result: 0.023 µM
CCOC(=O)/C=C/[C@H](C[C@@H]1CCNC1=O)NC(=O)[C@H](Cc1ccccc1)NC(=O)[C@H](CC(C)C)NC(=O)COc1ccccc1 ; method: XTT ; cells: H1-HELA ; strain or isolate: Serotype 14 ; result: 0.1 µM
CSc1ccc(Cn2cnc3c(N(C)C)nc(C(F)(F)F)nc32)cc1 ; method: plaque count ; cells: M-HELA ; strain or isolate: TYPE 1B ; result: 0.07 µM
CC(=O)OCCCNc1nnc2c3ccccc3n(C)c2n1 ; method: plaque count ; cells: WI-38 ; strain or isolate: 1059 ; result: 220 µg/mL
CSc1nsc(-c2ccc(OC(C)(C)C)cc2)c1C#N ; method: cytopathic effect ; cells: HELA-OHIO ; strain or isolate: Serotype 29 (group B) ; result: >40 µM
Nc1nnc2c(n1)[nH]c1ccc([N+](=O)[O-])cc12 ; method: plaque count ; cells: WI-38 ; strain or isolate: 1059 ; result: 220 µg/mL
CCOC(=O)c1ccc(OCCOc2ccc(-c3snc(SC)c3C#N)cc2)cc1 ; method: cytopathic effect ; cells: HELA-OHIO ; strain or isolate: Serotype 15 (group B) ; result: >2 µM
CN(C)c1nc(C(F)(F)F)nc2c1ncn2Cc1ccc(Cl)cc1Cl ; method: plaque count ; cells: M-HELA ; strain or isolate: Serotype 19 ; result: >8 µM
CCO/N=C/c1ccc(OCCCCN2CCN(c3ccc(C)nn3)CC2)cc1 ; method: cytopathic effect / visual reading ; cells: KB ; strain or isolate: TYPE 1A ; result: 0.04 µg/mL
Cc1cc(Cn2cnc3c(N(C)C)nc(C(F)(F)F)nc32)ccc1Cl ; method: plaque count ; cells: M-HELA ; strain or isolate: Serotype 30 ; result: >8 µM
COC(=O)[C@H](Cc1cccc2ccccc12)Nc1nc2ccc(NC(=O)OC(C)(C)C)c(C)c2c(=O)o1 ; method: XTT ; cells: H1-HELA ; strain or isolate: Serotype 14 ; result: 0.1 µM
OCCCNc1nnc2c3ccccc3n(CCc3ccccc3)c2n1 ; method: plaque count ; cells: WI-38 ; strain or isolate: 1059 ; result: 4 µg/mL
CCOC(=O)c1ccc(OCCC2CCN(c3ccc(C)nn3)CC2)cc1 ; method: cytopathic effect ; cells: HELA-OHIO ; strain or isolate: Serotype 2 (group B) ; result: 0.01 µM
Cc1ccc(Cn2cnc3c(N(C)C)nc(C(F)(F)F)nc32)cc1C ; method: plaque count ; cells: M-HELA ; strain or isolate: Serotype 1B ; result: 0.17 µM
CSc1nsc(-c2ccc(OCCCCOc3ccccc3)cc2)c1C#N ; method: cytopathic effect ; cells: HELA-OHIO ; strain or isolate: Serotype 42 (group A) ; result: >20 µM
Cc1cc(CCCCCOc2c(Cl)cc(C3=NCCO3)cc2Cl)on1 ; method: plaque count ; cells: HeLa ; strain or isolate: TYPE 30 ; result: 0.04 µg/mL
Fc1cccc(Cn2cnc3c(Nc4cccc(F)c4)nc(C(F)(F)F)nc32)c1 ; method: plaque count ; cells: M-HELA ; strain or isolate: Serotype 39 ; result: 12 µM
CCCn1c2ccccc2c2nnc(SC)nc21 ; method: plaque count ; cells: WI-38 ; strain or isolate: HGP ; result: 20 µg/mL
CSc1nsc(-c2ccc(OS(=O)(=O)c3ccc(C)cc3)cc2)c1C#N ; method: cytopathic effect ; cells: HELA-OHIO ; strain or isolate: Serotype 41 (group B) ; result: >25 µM
CSc1nsc(-c2ccc(OCCCOc3ccc([N+](=O)[O-])cc3)cc2)c1C#N ; method: cytopathic effect ; cells: HELA-OHIO ; strain or isolate: Serotype 63 (group B) ; result: >1 µM
CO/N=C/c1cccc(OCCC2CCN(c3ccc(Cl)nn3)CC2)c1 ; method: cytopathic effect / visual reading ; cells: MRC-5 ; strain or isolate: TYPE 2 ; result: <0.001 µg/mL
CCOC(=O)/C=C/[C@H](C[C@@H]1CCNC1=O)NC(=O)[C@H](Cc1ccc(F)cc1)NC(=O)[C@@H](NC(=O)c1cc(C)on1)C(C)(C)C ; method: XTT ; cells: H1-HELA ; strain or isolate: Serotype 14 ; result: 0.004 µM
Cc1ccc(Cn2cnc3c(N(C)C)nc(C(F)(F)F)nc32)cc1 ; method: plaque count ; cells: M-HELA ; strain or isolate: Serotype 4 ; result: >2.5 µM
CO/N=C/c1cc(C)c(OCCC2CCN(c3ccc(Cl)nn3)CC2)c(C)c1 ; method: cytopathic effect / visual reading ; cells: KB ; strain or isolate: TYPE 1A ; result: 0.0063 µg/mL
CCOC(=O)c1ccc(OCCC2CCN(c3ccc(C)nn3)CC2)cc1 ; strain or isolate: Serotype 10 ; result: <0.06 µM
C=CCO/N=C/c1cc(C)c(OCCCc2cc(C)no2)c(C)c1 ; method: cytopathic effect / visual reading ; cells: MRC-5 ; strain or isolate: TYPE 2 ; result: <0.05 µg/mL
Cc1cc(CCCOc2c(C)cc(-c3noc(C(F)(F)F)n3)cc2C)on1 ; strain or isolate: Serotype 1A ; result: <1.4 µM
Cc1ccccc1Cn1cnc2c(N(C)C)nc(C(F)(F)F)nc21 ; method: plaque count ; cells: M-HELA ; strain or isolate: Serotype 31 ; result: >8 µM
CSc1nsc(-c2ccc(OCc3ccccc3)cc2)c1C#N ; method: cytopathic effect ; cells: HELA-OHIO ; strain or isolate: Serotype 86 (group A) ; result: 2 µM
C=CCO/N=C/c1ccc(OCCC2CCN(c3ccc(C)nn3)CC2)c(C)c1 ; method: cytopathic effect / visual reading ; cells: KB ; strain or isolate: TYPE 1A ; result: <0.003 µg/mL
Cn1c2ccccc2c2nnc(NCCCN)nc21 ; method: plaque count ; cells: WI-38 ; strain or isolate: HGP ; result: 10 µg/mL

A second listing of 3 rows from above:

compound | method | cells | strain or isolate | result
CO/N=C/c1cc(C)c(OCCC2CCN(c3ccc(Cl)nn3)CC2)c(C)c1 | cytopathic effect / visual reading | KB | TYPE 1A | 0.0063 µg/mL
CSc1nsc(-c2ccc(OCCCOc3ccc(C#N)cc3)cc2)c1C#N | cytopathic effect | HELA-OHIO | Serotype 2 (group B) | >2 µM
CSc1nsc(-c2ccc(OC(C)(C)C)cc2)c1C#N | cytopathic effect | HELA-OHIO | Serotype 29 (group B) | >40 µM